Experiments:
cynomolgus primates = assay: Primate immunogenicity, anti-Z00342 IgG specific ELISA (Example 4); format: in vivo, Macaca fascicularis
Procedure: (§1) Administration and sampling schemes: The animal study was performed at SMI (Smittskyddsinsitutet) in Solna, Sweden, with permission from the local ethical animal committee (N196/06). The primates were sedated before administration of the test molecules and blood sampling, by an intramuscular administration of ketamine (Ketalar®). 10 individual cynomolgus primates, Macaca fascicularis, divided into two groups were intravenously injected with the test molecules according to the scheme in Table 8.
(§2) PK refers to samples taken for the pharmacokinetic study. Blood was stored at 4° C. over night and sera were subsequently kept at −20° C.
(§3) In general, a volume of 50 μl per well was used for all incubation steps except for blocking where a volume of 100 μl was used. Plates were coated over night at 4° C. in coating buffer (15 mM Na2CO3, 35 mM NaHCO3, pH 9.6) and washed with tap water. Blocking and dilutions were done in PBS with 0.5% casein. Incubation times at room temperature were 1-2 hours for blocking and serum, 1 hour for secondary antibody and 10 min for substrate solution (ImmunoPure® TMB, Pierce, cat no 34021). […] The color reaction was stopped by addition of 50 μl 2 M H2SO4 and plates were read at 450 nm using an Ultra384 plate reader (Tecan) equipped with the Magellan software v3.11 (Tecan). […]

[1] = Primate pharmacokinetics, serum-Z specific sandwich ELISA (Example 4); format: in vivo, Macaca fascicularis; settings: i.v. 0.5 mg/kg
Procedure: as §1, §2, §3

Z00342: variant of protein Z, derived from the B domain of staphylococcal protein A, with an affinity for the HER2 receptor
median concentration of IgG specific for Z variants (cynomolgus primates; day 45, calculated by linear regression using positive control as standard): 2 units/ml | IgG antibody response specific for the injected molecule (ELISA titer) (cynomolgus primates; i.v. 0.5 mg/kg/injection, repeated injections, serum days 0-45, 5 primates per group): antibody titer increased steadily and reached a maximum at day 28-35 in three of the animals (9039, 10025, 11019), whereas two showed a low antibody response | time until disappeared from the circulation [1]: ≤ 4 h

Source: patent publication US8937153B2, “Compositions, methods and uses” (Affibody AB, priority 2007, dated 2015)
